PubChem BioAssay AID1259414, Drosophila RNAi Screening Center – 2018
In all, the deposit lists about 24,000 reagents; shown is a random part of those that have a named target and a result. Of all reagents, about 1,210 (5%) were called active. 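Inactive calls also include excluded dsRNAs with several or no targets, genes unexpressed in JW18, and well A1, regardless of score.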 A plus sign joins genes that one reagent is predicted to hit. No sequences are given here.

- Aim: 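Fly genes that alter Wolbachia amount inside host cells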 (primary screen)
- Cell system: Drosophila JW18 cells infected with Wolbachia
- Reagents: long dsRNA against Drosophila genes, 0.25 µg dsRNA per well of a 384-well plate
- Duration: 5 days
- Challenge: cells persistently infected with Wolbachia before knock-down; no added drug
- Measured: 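Imaged fluorescence in situ signal for Wolbachia 23S rRNA per DAPI-counted host cell, given as a robust z-score within each plate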
- Direction: Wolbachia per cell robust z: higher = more Wolbachia per host cell than the plate typical
- Rule for the call: 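Hit when robust z is 1.5 or more, or -1.5 or less, in at least two of three replicates; excludes dsRNAs with several or no targets, genes not expressed in JW18 and well A1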

CG43774 + CG43773 [DRSC00288] → Wolbachia per cell robust z, rep 1 = -0.553; Wolbachia per cell robust z, rep 2 = 0.479; Wolbachia per cell robust z, rep 3 = -0.464; Call = inactive
CG43774 + CG43773 [DRSC26834] → Wolbachia per cell robust z, rep 1 = -0.77; Wolbachia per cell robust z, rep 2 = -1.37; Wolbachia per cell robust z, rep 3 = 0.593; Call = inactive
Mec2 [DRSC20054] → Wolbachia per cell robust z, rep 1 = 0.0694; Wolbachia per cell robust z, rep 2 = -0.327; Wolbachia per cell robust z, rep 3 = 0.183; Call = inactive
Mec2 [DRSC26162] → Wolbachia per cell robust z, rep 1 = -0.644; Wolbachia per cell robust z, rep 2 = -0.674; Wolbachia per cell robust z, rep 3 = -0.0292; Call = inactive
MED22 [DRSC18175] → Wolbachia per cell robust z, rep 1 = -0.336; Wolbachia per cell robust z, rep 2 = 0.234; Wolbachia per cell robust z, rep 3 = -0.412; Call = inactive
CG33689 [DRSC38838] → Wolbachia per cell robust z, rep 1 = -0.143; Wolbachia per cell robust z, rep 2 = 0.452; Wolbachia per cell robust z, rep 3 = -0.242; Call = inactive
mbl [DRSC23188] → Wolbachia per cell robust z, rep 1 = 0.682; Wolbachia per cell robust z, rep 2 = 0.983; Wolbachia per cell robust z, rep 3 = 0.905; Call = inactive
mbl [DRSC28319] → Wolbachia per cell robust z, rep 1 = -1.86; Wolbachia per cell robust z, rep 2 = -1.68; Wolbachia per cell robust z, rep 3 = -2.07; Call = active
Glyat [DRSC37806] → Wolbachia per cell robust z, rep 1 = 1.18; Wolbachia per cell robust z, rep 2 = 1.19; Wolbachia per cell robust z, rep 3 = 1.2; Call = inactive
CG5447 [DRSC15801] → Wolbachia per cell robust z, rep 1 = -0.207; Wolbachia per cell robust z, rep 2 = 0.284; Wolbachia per cell robust z, rep 3 = 1.05; Call = inactive
CG5447 [DRSC26407] → Wolbachia per cell robust z, rep 1 = 0.211; Wolbachia per cell robust z, rep 2 = -0.702; Wolbachia per cell robust z, rep 3 = 0.265; Call = inactive
FDY [DRSC38616] → Wolbachia per cell robust z, rep 1 = 0.681; Wolbachia per cell robust z, rep 2 = 0.77; Wolbachia per cell robust z, rep 3 = -0.277; Call = inactive
